Results of unrelated studies side by side (data: NIAID ChemDB).

Common to all: tests in culture; organism: Herpes simplex virus 2; cell line: E6SM; read-out: EC50

Conditions beyond the fields shown may differ between rows.

SMILES | strain | read by | result
Cc1cn(CC[C@H](O)CCO)c(=O)[nH]c1=O | 196 | cytopathic effect | >400 µg/mL
OC[C@H]1O[C@@H](c2cc(C#CBr)c(F)cc2F)C[C@@H]1O | G | cytopathic effect | >400 µg/mL
Nc1ncnc2c1ncn2CC[C@H](O)CCO | 196 | cytopathic effect | >400 µg/mL
OC[C@H]1O[C@@H](c2cc(/C=C/I)c(F)cc2F)C[C@@H]1O | 196 | cytopathic effect | >400 µg/mL
OC[C@H]1O[C@@H](c2cc(I)c(F)cc2F)C[C@@H]1O | G | cytopathic effect | >400 µg/mL
CC(=O)OCCOCN1C(C)=CC(N)=[N+](c2ccccc2)S1(=O)=O | LYONS |  | >400 µg/mL
CO[C@H](CO)[C@@H](O)CCn1cc(C)c(=O)[nH]c1=O | 196 | cytopathic effect | >400 µg/mL
OC[C@H]1O[C@H](c2cc(I)c(F)cc2F)C[C@@H]1O | LYONS | cytopathic effect | >400 µg/mL
CCOC(=O)C1=CN(COCCOC(C)=O)S(=O)(=O)N=C1N | LYONS |  | >400 µg/mL
CO[C@H](CO)[C@@H](O)CCn1cnc2c(N)ncnc21 | 196 | cytopathic effect | >400 µg/mL
Cc1cc([C@@H]2C[C@H](O)[C@@H](CO)O2)c(F)cc1F | LYONS | cytopathic effect | >400 µg/mL
CCOC(=O)C1=CN(COCCO)S(=O)(=O)NC1=O | G |  | >400 µg/mL
Cc1cc([C@H]2C[C@H](O)[C@@H](CO)O2)c(Cl)cc1F | 196 | cytopathic effect | >400 µg/mL
CC1=CC(=O)N(c2ccccc2)S(=O)(=O)N1COCCO | G |  | >400 µg/mL
COc1cc(F)c([C@H]2C[C@H](O)[C@@H](CO)O2)cc1[N+](=O)[O-] | 196 | cytopathic effect | >400 µg/mL
OC[C@H]1O[C@@H](c2cc(/C=C/Br)c(F)cc2F)C[C@@H]1O | G | cytopathic effect | >400 µg/mL

2 of the rows above, restated:

SMILES	strain	read by	result
Cc1cn(CC[C@H](O)CCO)c(=O)[nH]c1=O	196	cytopathic effect	>400 µg/mL
CO[C@H](CO)[C@@H](O)CCn1cc(C)c(=O)[nH]c1=O	196	cytopathic effect	>400 µg/mL

Blank or dashed fields: not listed here. ECn is the concentration giving n% inhibition of infection, replication or growth.